Taken from: PubChem BioAssay AID624099 (ICCB-Longwood, 2012)

Screen: 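Knock-downs relieving repression by E2 of an HPV18 LCR luciferase reporter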 (primary screen)
Cells: human C33A cervical carcinoma cells (HPV-negative) stably expressing BPV1 E2 and an HPV18 LCR luciferase reporter
Knock-down reagent: siRNA pool against human genes, 40 nM
Duration: 72 h
Measured: 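HPV18 LCR reporter light per well, converted to plate-wise z-scores that exclude control wells, and averaged over triplicate plates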
Scale: mean z-score and z-score: higher = stronger reporter signal, weaker E2 silencing
Rule for the call: 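Mean z ≥ 2 together with z ≥ 2 in two or more of the three replicates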
The whole screen tested about 21,000 reagents; shown is a part drawn at random. 497 of them (2.4%) were called active. 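Higher z means weaker E2 silencing; only reporter increases were scored, and knock-downs that hurt cell survival may mask genuine repressor factors.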 A number with no mark means an inactive call. Reagent sequences are not shown.

KCNB1 scored mean z-score -0.26; z-score, replicate A = 0.01; z-score, replicate B = -0.19; z-score, replicate C = -0.61.
For C2orf74-DT, the values are mean z-score -0.34; z-score, replicate A = -0.55; z-score, replicate B = -0.39; z-score, replicate C = -0.09.
Against CHRDL1 the deposit lists mean z-score -0.76; z-score, replicate A = -0.87; z-score, replicate B = -0.61; z-score, replicate C = -0.79.
After knock-down of PROM2, the screen gave mean z-score -0.37; z-score, replicate A = -0.23; z-score, replicate B = -0.6; z-score, replicate C = -0.29.
With knock-down of FOXE1, the record shows mean z-score 0.09; z-score, replicate A = 0.25; z-score, replicate B = 0.02; z-score, replicate C = 0.
For TRAPPC4, the entry reads mean z-score -0.4; z-score, replicate A = -0.33; z-score, replicate B = -0.57; z-score, replicate C = -0.29.
Against GATAD2A, the entry reads mean z-score -1.14; z-score, replicate A = -1.13; z-score, replicate B = -1.16; z-score, replicate C = -1.12.
After knock-down of FMNL2, the screen gave mean z-score -1; z-score, replicate A = -0.69; z-score, replicate B = -1.24; z-score, replicate C = -1.08.
Silencing of KCNJ11 gave: mean z-score 0.22; z-score, replicate A = 0.17; z-score, replicate B = 0.31; z-score, replicate C = 0.18.
After knock-down of ELOA3P the results were mean z-score 1.39; z-score, replicate A = 1.29; z-score, replicate B = 1.5; z-score, replicate C = 1.39.
With knock-down of AOC1 the results were mean z-score -0.66; z-score, replicate A = -0.07; z-score, replicate B = -0.97; z-score, replicate C = -0.96.
With knock-down of FGFR1OP2, the record shows mean z-score -2.47; z-score, replicate A = -2.64; z-score, replicate B = -2.38; z-score, replicate C = -2.4.
TIMM17B gave mean z-score 0.48; z-score, replicate A = 0.56; z-score, replicate B = 0.46; z-score, replicate C = 0.41.
For H2AZ2 the deposit lists mean z-score 0.56; z-score, replicate A = 0.38; z-score, replicate B = 0.82; z-score, replicate C = 0.5.
With knock-down of TMEM100 the results were mean z-score -0.11; z-score, replicate A = -0.3; z-score, replicate B = -0.52; z-score, replicate C = 0.49.
CASP1 showed mean z-score 0.73; z-score, replicate A = 1.02; z-score, replicate B = 0.61; z-score, replicate C = 0.55.

Quoted from above (2 entries):
GATAD2A → mean z-score: -1.14; z-score, replicate A: -1.13; z-score, replicate B: -1.16; z-score, replicate C: -1.12
FMNL2 → mean z-score: -1; z-score, replicate A: -0.69; z-score, replicate B: -1.24; z-score, replicate C: -1.08

Further reagents follow.
Depletion of TMEM123 gave: mean z-score 0.44; z-score, replicate A = 0.34; z-score, replicate B = 0.64; z-score, replicate C = 0.34.
For TOE1, the entry reads mean z-score 2.41 (active); z-score, replicate A = 2.62; z-score, replicate B = 2.45; z-score, replicate C = 2.17.
After knock-down of POP5, the record shows mean z-score 1.69; z-score, replicate A = 2.1; z-score, replicate B = 1.54; z-score, replicate C = 1.44.
With knock-down of GLB1, the screen gave mean z-score -0.21; z-score, replicate A = -0.17; z-score, replicate B = -0.06; z-score, replicate C = -0.39.
After knock-down of ALOX15B, the screen gave mean z-score -0.53; z-score, replicate A = -0.79; z-score, replicate B = -0.32; z-score, replicate C = -0.48.
RGL4 showed mean z-score 0.75; z-score, replicate A = 0.84; z-score, replicate B = 0.39; z-score, replicate C = 1.03.
SERPINA12 showed mean z-score 0.52; z-score, replicate A = 0.46; z-score, replicate B = 1.03; z-score, replicate C = 0.07.
Knock-down of POMGNT2 came out at: mean z-score 1.54; z-score, replicate A = 1.46; z-score, replicate B = 1.57; z-score, replicate C = 1.59.
For IL27, the values are mean z-score 0.68; z-score, replicate A = 0.14; z-score, replicate B = 1.23; z-score, replicate C = 0.66.
Against ARHGDIB, the values are mean z-score 1; z-score, replicate A = 0.86; z-score, replicate B = 0.87; z-score, replicate C = 1.27.
Against USP40, the entry reads mean z-score -1.34; z-score, replicate A = -1.04; z-score, replicate B = -1.45; z-score, replicate C = -1.51.
